Results of unrelated studies side by side (data: NIAID ChemDB).

Shared fields: target-level tests; agent: Hepatitis C virus; endpoint: IC50

Conditions beyond the fields shown may differ between rows.

compound,target,strain,result
C=CC1CC1(NC(=O)[C@@H]1C[C@@H](Oc2cc(-c3ccccc3)nc3cc(OC)ccc23)CN1C(=O)[C@@H](NC(=O)OC(C)(C)C)C(C)(C)C)C(=O)NS(C)(=O)=O,NS3/NS4A protease,BMS,<0.05 µM
C=CC1CC1(NC(=O)[C@@H]1C[C@@H](OC(=O)Nc2c(F)cccc2F)CN1C(=O)[C@@H](NC(=O)OC(C)(C)C)C(C)(C)C)C(=O)NS(=O)(=O)C1CC1,NS3/NS4A protease,BMS/H77C/J416S,0.1–1 µM
C=CC1CC1(NC(=O)[C@@H]1C[C@@H](Oc2cc(-c3ccccc3)nc3cc(OC)ccc23)CN1C(=O)[C@H](CC1CCCCC1)NC(=O)OC(C)(C)C)C(=O)NS(=O)(=O)C(F)(F)F,NS3/NS4A protease,BMS,<5 µM
O=C(O)c1nc(-c2cccc(O)c2)[nH]c(=O)c1O,HCV polymerase,-,<100 µM
CS(=O)(=O)c1cccc(Oc2ccc(-c3cnc4c(-c5nn[nH]n5)cnn4c3C3CCCCC3)cc2)c1,RNA-dependent RNA polymerase,-,<1 µM
O=C(O)c1sc(-c2ccccc2)cc1N(Cc1ccccc1Cl)C(=O)C1CCCCC1,NS3 ATPase,-,<5 µM
O=C(O)c1cnn2c(C3CCCCC3)c(-c3ccc(F)c(F)c3)cnc12,RNA-dependent RNA polymerase,-,1–10 µM
C=CCOC(=O)N[C@H](C(=O)N1C[C@H](Oc2cc(-c3ccccc3)nc3cc(OC)ccc23)C[C@H]1C(=O)N[C@]1(C(=O)NS(=O)(=O)C2CC2)C[C@H]1C=C)C(C)(C)C,NS3/NS4A protease,BMS,<0.05 µM
O=C(O)c1nc(-c2ccccc2NS(=O)(=O)c2ccccn2)[nH]c(=O)c1O,HCV polymerase,-,<100 µM
FC(F)(F)Oc1cccc(COc2ccc(-c3cnc4c(-c5nn[nH]n5)cnn4c3C3CCCCC3)cc2)c1,RNA-dependent RNA polymerase,-,1–10 µM
CN(C(=O)c1ccc(Cl)cc1Br)c1cc(-c2ccccc2)sc1C(=O)O,NS3 ATPase,-,<5 µM
C=CC1CC1(NC(=O)[C@@H]1C[C@@H](OC(=O)Nc2cc(Cl)ccc2OC)CN1C(=O)[C@@H](NC(=O)OC(C)(C)C)C(C)(C)C)C(=O)NS(=O)(=O)C1CC1,NS3/NS4A protease,BMS/H77C/J416S,<0.1 µM
O=C(NCCc1ccccc1)Nc1cscc1-c1nc(C(=O)O)c(O)c(=O)[nH]1,HCV polymerase,-,<25 µM
C=CC1CC1(NC(=O)[C@@H]1C[C@@H](OC(=O)Nc2ccc(Cl)cc2-c2cc(C)[nH]n2)CN1C(=O)[C@@H](NC(=O)OC(C)(C)C)C(C)(C)C)C(=O)NS(=O)(=O)C1CC1,NS3/NS4A protease,BMS/H77C/J416S,0.1–1 µM
O=C(N[C@@H](Cc1c[nH]c2ccccc12)C(=O)O)c1cc2nc(-c3cccc(F)c3)c(C3CCCCC3)c(=O)n2[nH]1,RNA-dependent RNA polymerase,-,<1 µM
CCOC(=O)c1cccc(-c2cc(NS(=O)(=O)c3ccccc3C)c(C(=O)O)s2)c1,NS3 ATPase,-,5–20 µM
C=C[C@@H]1C[C@]1(NC(=O)[C@@H]1C[C@@H](Oc2cc(-c3ccccc3)nc3cc(OC)ccc23)CN1C(=O)[C@@H](NC(=O)CC)C(C)(C)C)C(=O)NS(=O)(=O)C1CC1,NS3/NS4A protease,BMS,<0.05 µM
C=CC1CC1(NC(=O)[C@@H]1C[C@@H](OC(=O)NCc2cccc(CC)c2)CN1C(=O)[C@@H](NC(=O)OC(C)(C)C)C(C)(C)C)C(=O)NS(=O)(=O)C1CC1,NS3/NS4A protease,BMS/H77C/J416S,<0.1 µM
C=C[C@@H]1C[C@]1(NC(=O)[C@@H]1C[C@@H](Oc2cc(-c3ccccc3)nc3cc(OC)ccc23)CN1C(=O)[C@@H](NC(=O)OC(C)(C)C)[C@@H](C)CC)C(=O)NS(=O)(=O)C1CC1,NS3/NS4A protease,BMS,<0.5 µM
COc1cccc(CNC(=O)Nc2cscc2-c2nc(C(=O)O)c(O)c(=O)[nH]2)c1,HCV polymerase,-,<25 µM
CS(=O)(=O)c1cccc(-c2ccc(-c3cnc4c(-c5nn[nH]n5)cnn4c3C3CCCCC3)cc2)c1,RNA-dependent RNA polymerase,-,1–10 µM
C=CC1CC1(NC(=O)[C@@H]1C[C@@H](OC(=O)Nc2cc(C(F)(F)F)ccc2N2CCC(C(F)(F)F)CC2)CN1C(=O)[C@@H](NC(=O)OC(C)(C)C)C(C)(C)C)C(=O)NS(=O)(=O)C1CC1,NS3/NS4A protease,BMS/H77C/J416S,<0.1 µM
O=C(Nc1ccccc1-c1nc(C(=O)O)c(O)c(=O)[nH]1)NC(c1ccccc1)c1ccccc1,HCV polymerase,-,<100 µM
C=CC1CC1(NC(=O)[C@@H]1C[C@@H](OC(=O)Nc2ccccc2C)CN1C(=O)[C@@H](NC(=O)OC(C)(C)C)C(C)(C)C)C(=O)NS(=O)(=O)C1CC1,NS3/NS4A protease,BMS/H77C/J416S,0.1–1 µM
CN(Cc1ccccc1)C(=O)Nc1ccsc1-c1nc(C(=O)O)c(O)c(=O)[nH]1,HCV polymerase,-,<25 µM
O=C(O)c1nn2c(C3CCCCC3)c(-c3ccc(OCc4ccccc4)cc3)cnc2c1Br,RNA-dependent RNA polymerase,-,1–10 µM
C=C[C@@H]1C[C@]1(NC(=O)[C@@H]1C[C@@H](Oc2cc(-c3ccccc3)nc3cc(OC)ccc23)CN1C(=O)[C@@H](NC(=O)OC(C)(C)C)C(C)(C)C)C(=O)NS(=O)(=O)c1ccc(F)c(Cl)c1,NS3/NS4A protease,BMS,<0.05 µM
O=C(O)c1cc2nc(-c3ccc(OCc4ccccc4)cc3)c(CC3CCCCC3)c(=O)n2[nH]1,RNA-dependent RNA polymerase,-,<1 µM
C=C[C@@H]1C[C@]1(NC(=O)[C@@H]1C[C@@H](Oc2cc(-c3ccccc3)nc3cc(OC)ccc23)CN1C(=O)[C@@H](NC(=O)OC(C)(C)C)C(C)C)C(=O)NS(=O)(=O)C(F)(F)F,NS3/NS4A protease,BMS,<0.5 µM
Cc1cccc(-c2cc(N(C(=O)C3CCC(C)CC3)C(C)C)c(C(=O)O)s2)c1,NS3 ATPase,-,<5 µM
C=C[C@@H]1C[C@]1(NC(=O)[C@@H]1C[C@@H](Oc2cc(-c3ccccc3)nc3cc(OC)ccc23)CN1C(=O)[C@@H](NC(=O)OC(C)(C)C)C(C)(C)C)C(=O)NS(=O)(=O)c1c(C(C)C)cc(C(C)C)cc1C(C)C,NS3/NS4A protease,BMS,<5 µM
O=C(O)c1sc(-c2ccccc2)cc1NC(=O)N1CCc2ccccc2C1,NS3 ATPase,-,5–20 µM
O=C(Nc1cscc1-c1nc(C(=O)O)c(O)c(=O)[nH]1)OCc1ccccc1C(F)(F)F,HCV polymerase,-,<25 µM
CCCC(=O)N(Cc1cccc(Cl)c1)c1cc(-c2ccccc2)sc1C(=O)O,NS3 ATPase,-,<5 µM
O=C(O)c1c[nH]n2c(=O)c(CC3CCCO3)c(-c3ccc(OCc4ccccc4)cc3)nc12,RNA-dependent RNA polymerase,-,>10 µM
C=C[C@@H]1C[C@]1(NC(=O)[C@@H]1C[C@@H](Oc2cc(-c3ccccc3)nc3cc(OC)ccc23)CN1C(=O)[C@@H](NC(=O)OC(C)(C)C)C(C)(C)C)C(=O)NS(=O)(=O)c1ccccc1[N+](=O)[O-],NS3/NS4A protease,BMS,<0.05 µM
CCC(C)N(C(=O)c1ccc(Cl)cc1Cl)c1cc(-c2ccccc2)sc1C(=O)O,NS3 ATPase,-,<5 µM

The last 3 rows once more:

compound,target,strain,result
O=C(O)c1c[nH]n2c(=O)c(CC3CCCO3)c(-c3ccc(OCc4ccccc4)cc3)nc12,RNA-dependent RNA polymerase,-,>10 µM
C=C[C@@H]1C[C@]1(NC(=O)[C@@H]1C[C@@H](Oc2cc(-c3ccccc3)nc3cc(OC)ccc23)CN1C(=O)[C@@H](NC(=O)OC(C)(C)C)C(C)(C)C)C(=O)NS(=O)(=O)c1ccccc1[N+](=O)[O-],NS3/NS4A protease,BMS,<0.05 µM
CCC(C)N(C(=O)c1ccc(Cl)cc1Cl)c1cc(-c2ccccc2)sc1C(=O)O,NS3 ATPase,-,<5 µM

Two numbers with a dash give a range or band. An empty or dashed field is not shown. ICn: concentration for n% inhibition.